# This is one part of the list. Records with an inconclusive call do not appear. How the calls were made is not given here.
# Experiment: growth inhibition of non-replicating M. tuberculosis (AID 488890);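 further: plate controls were DMSO cells for no effect and high antibiotic wells for full effect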
# Settings: Mycobacterium tuberculosis non-replicating, at 25 µM, stronger effect = higher value
row,SMILES,inhibition [%]
1,Cc1cc(=O)[nH]c(N[N+](=O)[O-])n1,2.2
2,O=C(OC1CN2CCC1CC2)C12CC3CC(CC(C3)C1)C2 (stereo unspecified),11.5
3,Cc1c2c(nc3ccccc13)SC(C(Cl)Cl)C2 (stereo unspecified),68.7
4,COc1cc(I)ccc1[As](=O)(O)O,-8.25
5,COc1ccc2nc(NP(=O)(c3ccccc3)c3ccccc3)sc2c1,13.9
6,COc1ccc(N/C(=N/P(=O)(N2CCOCC2)N2CCOCC2)N2CCOCC2)cc1,-5.87
7,COc1cc(C(=O)NCC2(N3CCOCC3)CCCCC2)ccc1OCC(C)C,5.08
8,O=[As](O)(c1ccc(O)cc1)c1ccccc1O,55.7
9,C[As](=O)(O)c1cccc(C(=O)O)c1,-14
10,Cc1ccc2nc3c(c(C)c2c1)CC(C(Cl)Cl)S3 (stereo unspecified),46.3
11,Cc1ccc(OP(=O)(Nc2ccc([N+](=O)[O-])cn2)Oc2ccc(C)cc2)cc1,5.25
12,CC(C)c1ccc(OP(=O)(Nc2ccccn2)Oc2ccccc2F)cc1 (stereo unspecified),6.18
13,ClCCSc1nnc(-c2cccnc2)o1,74.9
14,CC(C)NC(=O)NP(=O)(Oc1ccccc1)Oc1ccccc1,2.5
15,CCOC(=O)Nc1ccc([As](=O)(O)O)c(O)c1,64.4
16,CCOC(=O)Nc1cccc([As](=O)(O)O)c1,-5.51
17,O=[N+]([O-])c1ccc(Nc2ccc(Oc3ccc([N+](=O)[O-])cc3[N+](=O)[O-])cc2)c([N+](=O)[O-])c1,10.6
18,Cc1cc(SC(NC=O)C(Cl)(Cl)Cl)ncn1 (stereo unspecified),30.9
19,O=P(Nc1ccccn1)(c1cccc2ccccc12)c1cccc2ccccc12,39.5
20,COP1(=S)c2c(C)nn(CCC#N)c2N=C(c2ccc(F)cc2)N1C (stereo unspecified),-4.21
21,O=C(Nc1ccncc1[N+](=O)[O-])c1ccc([N+](=O)[O-])cc1[N+](=O)[O-],75.5
22,O=C(COc1ccccc1)OC1CN2CCC1CC2 (stereo unspecified),-2.73
23,CCOC(=O)c1ccc(NC(=O)C(C)(CCl)SC)cc1 (stereo unspecified),8.66

row,SMILES,inhibition [%]
1,O=C(OC1CN2CCC1CC2)c1cccc([N+](=O)[O-])c1 (stereo unspecified),-9.68
2,CCC(C)N(CC(C)C)C(=S)SC(NC(C)=O)C(Cl)(Cl)Cl (stereo unspecified),63.8
3,CCOP(=O)(Nc1ccc(C)cn1)OCC,29.9
4,CN(CCCl)Cc1cc(Cl)c(NC2=NCCN2)c(Cl)c1,19
5,CCOP(=O)(NC(=NC(C)c1ccccc1)NC(C)c1ccccc1)OCC (stereo unspecified),7.7
6,O=P1(Nc2ccccn2)COc2ccccc2OC1,2.29
7,CC(C)(C)C(=O)NC(Sc1ncccn1)C(Cl)(Cl)Cl (stereo unspecified),13
8,Clc1n[nH]nc1-c1nn[nH][15n]1,0.21
9,COc1ccccc1CNC(=O)COC(=O)C(O)(c1ccccc1)c1ccccc1,-14.4
10,CC1(CBr)Cn2c(nc3ccccc3c2=O)S1 (stereo unspecified),-1.45
11,O=[As](O)(c1ccccc1Br)c1ccccc1Br,-14.8
12,CN(C(=O)Cc1ccc(Cl)c(Cl)c1)[C@@H]1CCCC[C@H]1N1CCCC1,13.3
13,CC(C)/C=N\N=C(\N)N[N+](=O)[O-],-12.2
14,Cc1ccc(C(=O)OC2CN3CCC2CC3)cc1 (stereo unspecified),2.45
15,CC1CCC(C(C)C)C(OP(=O)(Nc2ccccn2)c2ccccc2)C1 (stereo unspecified),41.9
16,Cc1nn(-c2ccccc2)c2c1P(=O)(N1CCOCC1)N(C)C(c1ccccc1)=N2 (stereo unspecified),-0.13
17,O=C(/C=C/c1ccccc1)OC1CN2CCC1CC2 (stereo unspecified),10.1
18,CN(C)C1(CNC(=O)c2ccc(S(C)(=O)=O)cc2)CCCCC1,-6.38
19,O=P1(Nc2ncccn2)COc2ccccc2OC1,5.49
20,Cc1ccc(OCC(=O)OC2CN3CCC2CC3)cc1 (stereo unspecified),-10
21,O=[As](O)(c1cccs1)c1cccs1,-4.29
22,NS(=O)(=O)c1cccc(NC(=O)COC(=O)C(O)(c2ccccc2)c2ccccc2)c1,-2.53
23,O=P1(Nc2ccc(Br)cn2)COc2ccccc2OC1,0.67

row,SMILES,inhibition [%]
1,Nc1cccc([As](=O)(O)c2ccccc2)c1,3.38
2,CS(=O)(=O)c1cc([N+](=O)[O-])c2no[n+]([O-])c2c1,-3.79
3,O=P(Nc1nccs1)(Oc1ccccc1)Oc1ccccc1,-5.53
4,CCOP1(=S)c2c(C)nn(CCC#N)c2N=C(c2ccccc2F)N1C (stereo unspecified),-8.07
5,O=C(O)COc1ccc([As](=O)(O)O)cc1[N+](=O)[O-],-5.62
6,Nc1ccccc1[As](=O)(O)c1ccccc1,1.52
7,NC(=O)Nc1ccc([As](=O)(O)O)cc1,-1.82
8,CN(C(=O)Cc1ccc(Cl)c(Cl)c1)[C@H]1CC[C@@]2(CCCO2)C[C@@H]1N1CCCC1,3.15
9,CN(C(=O)Cc1ccccc1)[C@@H]1CC[C@]2(CCCO2)C[C@H]1N1CCCC1,1.88
10,CCOP1(=S)c2c(C)nn(CCC#N)c2N=C(c2ccc(F)cc2)N1C (stereo unspecified),4.8
11,N#CCCN(C(=O)COC(=O)C(O)(c1ccccc1)c1ccccc1)c1ccc(F)cc1,-12.8
12,CS(=O)(=O)c1ccc(Cl)c(NC(=O)COC(=O)C(O)(c2ccccc2)c2ccccc2)c1,3.42
13,O=[As](O)(O)c1cccnc1,-8.65
14,COc1cc(C(=O)NCC2(N3CCOCC3)CCCCC2)cc(Cl)c1OC(C)C,10.9
15,O=C(OC1CN2CCC1CC2)c1ccc(Cl)cc1 (stereo unspecified),50
16,Cc1cccc(OCC(=O)OC2CN3CCC2CC3)c1 (stereo unspecified),-7.54
17,O=[As](O)(c1cccc(O)c1)c1cccc(O)c1,8.13
18,CCCOP(=S)(Nc1nc(N)cc(=O)[nH]1)OCCC,-0.19
19,Nc1cccc2c([As](=O)(O)O)cccc12,0.63
20,CCOP(=O)(Nc1cccc2ccccc12)OCC,-15.2
21,COc1cc(C2NCCC3(OCCO3)C2(C)C)cc(OC)c1OC (stereo unspecified),13.8
22,CCOc1ccc(C2=NCC(CBr)S2)cc1 (stereo unspecified),9.8
23,O=P1(Nc2nc3ccc(Cl)cc3s2)COc2ccccc2O1 (stereo unspecified),7.04

row,SMILES,inhibition [%]
1,CC(C)(C)C(=O)NC(Sc1ccccc1)C(Cl)(Cl)Cl (stereo unspecified),20.4
2,CC(=O)c1ccc(N2CC2c2ccncc2)cc1 (stereo unspecified),1.28
3,C[C@H]1OP(=O)(Oc2ccccc2)C[C@@H]2O[C@@H]21 (stereo partly specified),-14.7
4,C[C@@H]1C=CCP(=O)(Oc2ccccc2)O1 (stereo partly specified),2.78
5,Cc1ccccc1CN(C)C(=O)COC(=O)C(O)(c1ccccc1)c1ccccc1,-2.31
6,CC(=O)Nc1ccc(Oc2c([N+](=O)[O-])cc([N+](=O)[O-])cc2[N+](=O)[O-])cc1,5.39
7,CC(=O)Nc1ccc([As](=O)(O)O)c(O)c1,-6.42
8,O=C(NC1CCS(=O)(=O)C1)NP(=S)(Oc1ccccc1)Oc1ccccc1 (stereo unspecified),4.42
9,CCNC(=S)/N=C(\N)N[N+](=O)[O-],12.8
10,Cc1ccc(NP(=O)(Oc2cccc(C)c2)Oc2cccc(C)c2)nc1,-18.3
11,CCOC(=O)NC(Sc1ccccc1)C(Cl)(Cl)Cl (stereo unspecified),11.6
12,c1ccc(-c2nn[nH]n2)c(-c2nn[nH]n2)c1,-4.09
13,CC(=O)NC(SC(=S)N(CC(C)C)CC(C)C)C(Cl)(Cl)Cl (stereo unspecified),64.1
14,Cc1ccc(OP(=O)(Nc2ccccn2)Oc2ccc(C)cc2)cc1,4.26
15,COC(=O)c1cc2c(s1)N=C(c1ccccc1)N(C)P2(=O)N1CCOCC1 (stereo unspecified),1.51
16,CCC(=O)N1C2C3N(C(=O)CC)C1C1N(C(=O)CC)C(C(N1C(=O)CC)N3C(=O)CC)N2C(=O)CC,-2.1
17,O=C(OC1CN2CCC1CC2)c1ccccc1 (stereo unspecified),-4.02
18,CN(C)C(=O)Oc1noc2ccccc12,8.45
19,CC(NC(=O)COC(=O)C(O)(c1ccccc1)c1ccccc1)c1ccccc1 (stereo unspecified),10.7
20,Cc1ccccc1OP(=O)(Nc1ccccn1)Oc1ccccc1C,24.1
21,CN(C)C1(CNC(=O)c2ccc(Cl)c(S(N)(=O)=O)c2)CCCCC1,-2.84
22,O=P(Nc1ccccn1)(c1ccc(Br)cc1)c1ccc(Br)cc1,13.2
23,C[C@H]1OP(=O)(Oc2ccccc2)[C@H](O)[C@H](O)[C@H]1N=[N+]=[N-] (stereo partly specified),-0.01

row,SMILES,inhibition [%]
1,O=P(Nc1nc2ccccc2s1)(c1ccccc1)c1ccccc1,37.7
2,CC(=O)NC(SC(=S)N(C)C)C(Cl)(Cl)Cl (stereo unspecified),-4.45
3,O=[N+]([O-])c1ncn(CCn2cnc([N+](=O)[O-])n2)n1,-8.95
4,O=[As](O)(c1ccccc1)c1ccc(O)cc1,-9.63
5,C(Cc1nn[nH]n1)Cc1nn[nH]n1,-6.26
6,Nc1ccc([As](=O)(O)c2ccc([N+](=O)[O-])cc2)cc1,60.6
7,O=C(OC1CN2CCC1CC2)c1cccc(Cl)c1 (stereo unspecified),14.1
8,O=P(Nc1nccs1)(c1ccccc1)c1ccccc1,17.8
9,CC(C)C(=O)NC(Sc1ccccc1)C(Cl)(Cl)Cl (stereo unspecified),-1.63
10,c1nnnn1CCn1cnnn1,-22.2
11,COc1ccc(C2=NCC(CBr)S2)cc1 (stereo unspecified),27.4
12,CC(=O)N1C2C3N(C(C)=O)C1C1N(C(C)=O)C(C(N1C(C)=O)N3C(C)=O)N2C(C)=O,-4.28
13,O=[N+]([O-])c1cccc2n[nH]nc12,8.68
14,Cc1ccc(NP(=O)(Oc2ccccc2)Oc2ccccc2)nc1,14.6
15,Nc1ccc([As](=O)(O)c2ccc(N)cc2)cc1,50
16,CCN(/C(=N/P(=O)(N1CCOCC1)N1CCOCC1)N1CCOCC1)c1ccc(OC)cc1,11.5
17,CN(C)C(=O)OCCc1n(C)cc[n+]1C,-8.96
18,CC(C)=N/N=C(\N)N[N+](=O)[O-],-11.5
19,CC1CCN(C(=O)Oc2c(Cl)cc(Cl)c3cccnc23)CC1,51.7
20,O=C(Nc1cc([As](=O)(O)O)ccc1O)c1ccccc1,3.7
21,CC(C)(C)C(=O)NC(Sc1ccncn1)C(Cl)(Cl)Cl (stereo unspecified),36.7
22,O=[N+]([O-])c1ncn(CCn2ncnc2[N+](=O)[O-])n1,-2
23,O=[N+]([O-])c1cccc(NC2=NCC(CBr)S2)c1 (stereo unspecified),-5.07

row,SMILES,inhibition [%]
1,O=C(O)CNc1ccc([As](=O)(O)O)cc1,-15.8
2,CC(=O)Nc1ccc([As](=O)(O)O)cc1,4.21
3,O=C(O)c1ccccc1[As](=O)(O)O,-4.4
4,CN(C(=O)Cc1ccc(Cl)c(Cl)c1)[C@H]1CCCC[C@@H]1N1CCCC1,-1.6
5,Cc1ccc(NP(=O)(Oc2ccccc2F)Oc2ccccc2F)nc1,-0.36
6,Cc1cc(SC(NC(=O)c2ccc(F)cc2)C(Cl)(Cl)Cl)ncn1 (stereo unspecified),46.2
7,CCOP(=O)(Nc1ccccc1)OCC,2.69
8,O=[N+]([O-])c1cc([N+](=O)[O-])c(CCN2CCOCC2)c([N+](=O)[O-])c1,76.3
9,CCN(N=Nc1nonc1N)c1nonc1N,-25.3
10,NC(=O)c1cc([N+](=O)[O-])cc([N+](=O)[O-])c1N,-9.96
11,Cc1ccc(N/C(=N/P(=O)(N2CCOCC2)N2CCOCC2)N2CCOCC2)cc1,-11
12,CN(C(=O)Cc1ccc(Cl)c(Cl)c1)[C@H]1CCCC[C@H]1N1CCCC1,42
13,Cc1ccc(OP(=O)(Nc2nccs2)Oc2ccc(C)cc2)cc1,16.9
14,COc1ccccc1OP(=O)(Nc1ccc(C)cn1)Oc1ccccc1OC,-9.09
15,CN1CCCC(OC(=O)C(c2ccccc2)c2ccccc2)C1 (stereo unspecified),-7.21
16,Clc1ccc(Cl)c(NC2=NCC(CBr)S2)c1 (stereo unspecified),11.7
17,Nc1cc(N)c2nonc2c1[N+](=O)[O-],-3.33
18,CC(C)CC(=O)NC(Sc1ccc(Cl)cc1)C(Cl)(Cl)Cl (stereo unspecified),28.7
19,O=C(NC(Sc1ccncn1)C(Cl)(Cl)Cl)c1ccccc1 (stereo unspecified),32.4
20,Cc1c2non([O-])c-2c(C)[n+](=O)[n+]1[O-],28
21,Oc1ccccc1CNc1ccccn1,-0.12
